Biological target: bot toxoid B (Clostridium botulinum, UniProt P10844)
Assay type: binding

By UniProt entry, the sequences of proteins in these tests, tags left out.
UniProt P10844, whole entry, looked up: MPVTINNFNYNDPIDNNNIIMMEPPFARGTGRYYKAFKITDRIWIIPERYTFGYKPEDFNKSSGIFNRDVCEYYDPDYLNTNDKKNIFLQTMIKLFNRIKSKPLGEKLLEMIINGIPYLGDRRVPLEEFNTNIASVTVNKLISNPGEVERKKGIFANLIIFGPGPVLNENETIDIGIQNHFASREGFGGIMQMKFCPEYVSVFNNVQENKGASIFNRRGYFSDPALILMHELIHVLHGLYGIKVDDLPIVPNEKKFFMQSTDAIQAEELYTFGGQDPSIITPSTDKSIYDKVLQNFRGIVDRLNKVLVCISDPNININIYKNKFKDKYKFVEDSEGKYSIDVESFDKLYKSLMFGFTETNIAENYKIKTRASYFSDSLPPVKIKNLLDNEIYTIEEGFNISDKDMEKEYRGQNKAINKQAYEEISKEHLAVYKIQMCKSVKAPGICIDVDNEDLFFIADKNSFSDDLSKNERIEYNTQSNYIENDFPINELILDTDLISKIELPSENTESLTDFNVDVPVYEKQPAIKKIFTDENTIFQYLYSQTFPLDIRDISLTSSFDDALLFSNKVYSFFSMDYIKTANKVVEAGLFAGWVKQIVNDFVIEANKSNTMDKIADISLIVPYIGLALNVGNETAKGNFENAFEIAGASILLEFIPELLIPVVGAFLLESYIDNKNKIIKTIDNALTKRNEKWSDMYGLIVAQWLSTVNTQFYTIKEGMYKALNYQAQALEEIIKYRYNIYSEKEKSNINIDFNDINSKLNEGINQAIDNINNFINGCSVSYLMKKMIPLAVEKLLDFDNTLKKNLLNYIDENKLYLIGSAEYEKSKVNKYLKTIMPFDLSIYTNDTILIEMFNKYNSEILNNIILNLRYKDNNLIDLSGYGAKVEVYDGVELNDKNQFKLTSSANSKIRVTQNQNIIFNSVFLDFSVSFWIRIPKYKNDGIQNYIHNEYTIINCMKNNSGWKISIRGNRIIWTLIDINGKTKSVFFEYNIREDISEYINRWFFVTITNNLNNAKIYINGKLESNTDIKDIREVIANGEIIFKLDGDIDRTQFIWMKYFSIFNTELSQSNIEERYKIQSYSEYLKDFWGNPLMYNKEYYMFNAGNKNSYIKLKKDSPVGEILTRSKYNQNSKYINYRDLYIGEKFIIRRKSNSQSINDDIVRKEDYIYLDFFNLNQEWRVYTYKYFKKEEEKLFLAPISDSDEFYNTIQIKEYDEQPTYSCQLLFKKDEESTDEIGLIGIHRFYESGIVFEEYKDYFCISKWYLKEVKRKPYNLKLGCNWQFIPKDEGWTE

`CC[C@H](C)[C@H](NC(=O)CN)C(=O)NCC(=O)N[C@@H](C)C(=O)N[C@H](C(=O)N[C@@H](CC(C)C)C(=O)N[C@@H](CCCCN)C(=O)N[C@H](C(=O)N[C@@H](CC(C)C)C(=O)N[C@H](C(=O)N[C@H](C(=O)NCC(=O)N[C@@H](CC(C)C)C(=O)N1CCC[C@H]1C(=O)N[C@@H](C)C(=O)N[C@@H](CC(C)C)C(=O)N[C@H](C(=O)N[C@@H](CO)C(=O)N[C@@H](Cc1c[nH]c2ccccc12)C(=O)N[C@H](C(=O)N[C@@H](CCCCN)C(=O)N[C@@H](CCCNC(=N)N)C(=O)N[C@@H](CCCCN)C(=O)N[C@@H](CCCNC(=N)N)C(=O)N[C@@H](CCC(N)=O)C(=O)N[C@@H](CCC(N)=O)C(N)=O)[C@@H](C)CC)[C@@H](C)CC)[C@@H](C)O)[C@@H](C)O)C(C)C)C(C)C` [Melittin] was tested, and the “Limit of detection of bot toxoid B” value was ≤ 5 ng/mL and the “Preferential binding, toxoid B versus toxoid A” value was “bound preferentially by toxoid B”.

From US8945856B2, “Affinity-based detection of biological targets” (priority 2005, dated 2015)
